Laboratory results published in ChEMBL document CHEMBL4421733, “Inhibitors of eya2” (2012).
The source made the active and inactive calls. The calls are words filed in the database; no cut-off is given here.

Molecular target: T1, Protein phosphatase EYA2 (Homo sapiens) (UniProt O00167)
T1 sequence (whole entry): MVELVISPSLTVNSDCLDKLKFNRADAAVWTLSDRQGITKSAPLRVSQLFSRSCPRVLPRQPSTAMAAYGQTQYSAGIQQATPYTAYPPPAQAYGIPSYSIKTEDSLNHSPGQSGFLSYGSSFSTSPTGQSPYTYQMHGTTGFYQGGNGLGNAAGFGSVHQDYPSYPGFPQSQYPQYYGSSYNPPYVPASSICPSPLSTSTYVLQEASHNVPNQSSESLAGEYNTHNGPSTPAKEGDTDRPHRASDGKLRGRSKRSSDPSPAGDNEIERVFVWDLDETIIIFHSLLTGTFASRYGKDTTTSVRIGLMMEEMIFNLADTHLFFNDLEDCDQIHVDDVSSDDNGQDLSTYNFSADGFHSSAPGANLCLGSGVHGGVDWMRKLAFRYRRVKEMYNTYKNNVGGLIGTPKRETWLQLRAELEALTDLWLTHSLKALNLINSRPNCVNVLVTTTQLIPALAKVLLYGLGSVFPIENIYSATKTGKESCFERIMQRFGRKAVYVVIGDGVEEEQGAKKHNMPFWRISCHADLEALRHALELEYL
Assay: Inhibition of GST-fused human Eya2 ED (253 to 538 residues) expressed in Escherichia coli at […] pre-incubated for 10 mins followed by OMFP substrate addition and further incubated for 30 mins by fluorescence based assay

## O=[As]c1ccccc1 (stereo unspecified)
  inhibition: inactive
